A mixed list of measured activities; the numbers were collected in NIAID ChemDB.

Shared fields: target-level tests; agent: HIV-1; target: Reverse transcriptase

Neighbouring rows are from separate reports. Two numbers with a dash give a range or band. ICn: concentration for n% inhibition. An empty or dashed field is not shown.

CCC(CC)Nc1cccnc1N1CCN(C(=O)c2cc3ccccc3[nH]2)CC1 ; measure: IC50 ; read by: nucleotide incorporation ; result: <100 µM
Nc1cc2c(c(N3CCOCC3)c1)CCN(c1nn3c(C4CC4)nnc3c3ccccc13)C2 ; measure: IC50 ; read by: RT activity / fluorescence ; strain: IIIB ; result: 48.1 µM
CCN1c2ncc(CCc3cccc(O)c3)cc2C(=O)N(C)c2cccnc21 ; measure: IC50 ; read by: nucleotide incorporation / radiometric ; mutations: RT-Y181C ; result: <1 µM
CC(C)Nc1cccnc1N1CCN(C(=O)c2cc3ccc(F)cc3[nH]2)CC1 ; measure: IC50 ; read by: nucleotide incorporation ; result: <100 µM
C=Cc1cc(N(C)C)nc(SCc2ccc(OC)cc2)n1 ; measure: Ki ; read by: nucleotide incorporation / radiometric ; result: 325 µM
CCN1c2ncc(CCOc3cccc4c3CNC4=O)cc2-c2ncc(C)n2-c2cccnc21 ; measure: IC50 ; read by: nucleotide incorporation / radiometric ; mutations: RT-K103N Y181C ; result: >0.1 µM
Cc1ccc(C2CCCCc3c2n(COCc2ccccc2)c(=O)[nH]c3=O)cc1 ; measure: IC50 ; read by: ELISA ; result: 9.31 µM
CC(C)Nc1cccnc1N1CCC(C2CCN(C(=O)c3cc4ccccc4[nH]3)CC2)CC1 ; measure: IC50 ; read by: nucleotide incorporation ; result: >100 µM
CCN1c2ncc(CC(F)c3ccncc3)cc2C(=O)N(C)c2ccc(Cl)nc21 ; measure: IC50 ; read by: nucleotide incorporation / radiometric ; mutations: RT-Y181C ; result: <1 µM
Cc1cc(C)cc(S(=O)(=O)c2c(C(N)=O)[nH]c3ccc(Cl)c(F)c23)c1 ; measure: Ki ; read by: RT activity / nucleotide incorporation ; mutations: K103N ; result: 0.36 µM
CC(C)Nc1cccnc1OCCN(C)C(=O)c1cc2ccccc2[nH]1 ; measure: IC50 ; read by: nucleotide incorporation ; result: <100 µM
O=C(OCC1O[C@@H](O)C(O)(COC(=O)c2cc(O)c(O)c(O)c2)C1O)c1cc(O)c(O)c(O)c1 ; measure: IC50 ; read by: nucleotide incorporation ; result: >20 µg/mL
CCN1c2ncc(CCOc3cccc4c3CCNC4=O)cc2-c2ncc(C)n2-c2cccnc21 ; measure: IC50 ; read by: nucleotide incorporation / radiometric ; mutations: RT-K103N Y181C ; result: >0.1 µM
Cc1cc(C)cc(S(=O)(=O)c2c(C(=O)NCCn3cccc3)[nH]c3ccc(Cl)c(F)c23)c1 ; measure: Ki ; read by: RT activity / nucleotide incorporation ; mutations: WT ; result: 0.018 µM
C=Cc1cc(N(CCC)CCC)nc(S(C)(=O)=O)n1 ; measure: Ki ; read by: nucleotide incorporation / radiometric ; result: >400 µM
CCN1c2ncc(CCOc3cccc4c3CNC(=O)N4)cc2-c2nccn2-c2c(C)ccnc21 ; measure: IC50 ; read by: nucleotide incorporation / radiometric ; result: <0.05 µM
Nc1nc2c(ncn2[C@H]2CC[C@@H](COP(=O)(O)OP(=O)(O)OP(=O)(O)O)O2)c(=O)[nH]1 ; measure: IC50 ; read by: nucleotide incorporation ; mutations: RT-Y181I ; result: 0.05 µM
CC(C)Nc1nccnc1N1CCN(C(=O)c2cc3cc(F)ccc3[nH]2)CC1 ; measure: IC50 ; read by: nucleotide incorporation ; result: <100 µM
O=C(c1cc2ccccc2[nH]1)N1CCN(c2nccnc2NC2CC2)CC1 ; measure: IC50 ; read by: nucleotide incorporation ; result: <100 µM
CCN1c2ncc(CCOc3cccc4c3COC(=O)N4)cc2-c2ncc(C)n2-c2cccnc21 ; measure: IC50 ; read by: nucleotide incorporation / radiometric ; mutations: RT-K103N Y181C ; result: >0.1 µM
CCNc1cccnc1N1CCN(C(=O)c2ccc3ccccc3c2)CC1 ; measure: IC50 ; read by: nucleotide incorporation ; result: <100 µM
Nc1ccn([C@H]2CC[C@@H](COP(=O)(O)OP(=O)(O)OP(=O)(O)O)O2)c(=O)n1 ; measure: IC50 ; read by: nucleotide incorporation / radiometric ; strain: IIIB ; mutations: RT-1(IIIB) ; result: 0.43 µM
Cc1c(Cc2ccccc2)nc(SCCCCO)[nH]c1=O ; measure: Ki ; mutations: RT-V179D ; result: 115 µM
CC(C)Nc1cccnc1N(C)N1CCN(C(=O)c2cc3ccccc3[nH]2)CC1 ; measure: IC50 ; read by: nucleotide incorporation ; result: <100 µM
Nc1ncnc2c1ncn2[C@H]1CC[C@@H](COP(=O)(O)OP(=O)(O)OP(=O)(O)O)O1 ; measure: Ki ; read by: nucleotide incorporation / radiometric ; mutations: RT-Q151M ; result: 1.3 µM
Cc1cc(S(N)(=O)=O)ccc1NC(=O)COc1ccccc1C(=O)c1cc(Cl)cc(C#N)c1 ; measure: IC50 ; read by: fluorescence ; strain: NNRTI-resistant ; mutations: RT-K103N Y181C ; result: 0.0108 µM
CCN1c2ncc(CCOc3ccc(C(=O)O)c4ccccc34)cc2-c2ncc(C)n2-c2cccnc21 ; measure: IC50 ; read by: nucleotide incorporation / radiometric ; result: <0.05 µM
O=c1cc(Cc2ccccc2)nc(SCCCCO)[nH]1 ; measure: Ki ; mutations: RT-L100I ; result: 200 µM
O=C(c1cc2ccccc2[nH]1)N1CCN(c2ncccc2NCC(F)(F)F)CC1 ; measure: IC50 ; read by: nucleotide incorporation ; result: >100 µM
CCN1c2ncc(CCc3ccc(C(=O)OC)cc3)cc2C(=O)N(C)c2cccnc21 ; measure: IC50 ; read by: nucleotide incorporation / radiometric ; mutations: RT-Y181C ; result: <1 µM
CC(C)Nc1cccnc1N1CCN(C(=O)c2cc3c(ccc4ccccc43)[nH]2)CC1 ; measure: IC50 ; read by: nucleotide incorporation ; result: <100 µM
Oc1cc(O)c2c(c1)O[C@H](c1ccc(O)c(O)c1)[C@H](O)C2c1c(O)cc(O)c2c1O[C@H](c1ccc(O)c(O)c1)[C@H](O)C2c1c(O)cc(O)c2c1O[C@@]1(c3ccc(O)c(O)c3)Oc3cc(O)c4c(c3[C@@H]2[C@H]1O)O[C@H](c1ccc(O)c(O)c1)[C@H](O)C4 ; measure: IC50 ; read by: nucleotide incorporation ; result: >20 µg/mL
CC(C)Nc1cccnc1N1CCN(C(=O)c2cc3cc(OCC(=O)OCc4ccccc4)ccc3[nH]2)CC1 ; measure: IC50 ; read by: nucleotide incorporation ; result: <100 µM
O=C(OC1[C@H](O)CC(O)(C(=O)O)C[C@H]1O)c1cc(O)c(O)c(O)c1 ; measure: IC50 ; read by: nucleotide incorporation ; result: >20 µg/mL
CCN1c2ncc(CCOc3cccc4c3CS(=O)(=O)N4)cc2-c2nccn2-c2c(C)ccnc21 ; measure: IC50 ; read by: nucleotide incorporation / radiometric ; mutations: RT-K103N Y181C ; result: 0.05–0.1 µM
CCNc1cccnc1N1CCN(C(=O)c2cc(C)c(OC)c(C)c2)CC1 ; measure: IC50 ; read by: nucleotide incorporation ; result: <100 µM
CCN1c2ncc(CCc3cccc4[nH]cc(SC)c34)cc2C(=O)N(C)c2ccc(Cl)nc21 ; measure: IC50 ; read by: nucleotide incorporation / radiometric ; mutations: RT-Y181C ; result: >1 µM
O=C(OC1OC2COC(=O)c3cc(O)c(O)c(O)c3-c3c(cc(O)c(O)c3O)C(=O)OC2C(OC(=O)c2cc(O)c(O)c(O)c2)C1OC(=O)c1cc(O)c(O)c(O)c1)c1cc(O)c(O)c(O)c1 ; measure: IC50 ; read by: nucleotide incorporation ; result: >20 µg/mL
c1coc(-c2nnc3c4ccccc4c(N4CCc5ccccc5C4)nn23)c1 ; measure: IC50 ; read by: RT activity / fluorescence ; strain: 98US_MSC5016 ; result: 0.63 µM
CC(C)Nc1cccnc1N1CCN(C(=O)c2cc3cc(OCc4ccccc4)ccc3[nH]2)CC1 ; measure: IC50 ; read by: nucleotide incorporation ; result: <100 µM
O=C(O[C@@H]1O[C@@H]2COC(=O)c3cc(O)c(O)c(O)c3-c3c(cc(O)c(O)c3O)C(=O)O[C@H]([C@H]1O)[C@@H]2O)c1cc(O)c(O)c(O)c1 ; measure: IC50 ; read by: nucleotide incorporation ; result: >20 µg/mL
Cc1c(Cc2ccccc2)nc(NCCCCN)[nH]c1=O ; measure: Ki ; result: 97 µM
COc1ccc2c(c1)CN(c1nn3c(C(C)C)nnc3c3ccccc13)CC2 ; measure: IC90 ; read by: RT activity / fluorescence ; strain: KER2008 ; result: 53.7 µM
O=c1[nH]c(=O)n(Cc2ccccc2)c2c1CCCCC2c1ccccc1 ; measure: IC50 ; read by: ELISA ; result: 101 µM
O=C(c1cc2ccccc2[nH]1)N1CCN(c2ncccc2[N+](=O)[O-])CC1 ; measure: IC50 ; read by: nucleotide incorporation ; result: >100 µM
O=C1OCC2OC(O)C(O)C(O)C2OC(=O)c2cc(O)c(O)c(O)c2-c2c(O)c(O)c3oc(=O)c4c(c(O)c(O)c5oc(=O)c2c3c54)-c2c1cc(O)c(O)c2O ; measure: IC50 ; read by: nucleotide incorporation ; result: <20 µg/mL
Cc1nnc2ccc(N3CCc4ccccc4C3)nn12 ; measure: IC90 ; read by: RT activity / fluorescence ; strain: IIIB ; result: 58.3 µM
O=C(c1cc2ccccc2[nH]1)N1CCN(c2ncccc2NCC2CC2)CC1 ; measure: IC50 ; read by: nucleotide incorporation ; result: <100 µM

For reference, 4 entries again:

compound | measure | read by | strain | mutations | result
CC(C)Nc1cccnc1N1CCN(C(=O)c2cc3ccc(F)cc3[nH]2)CC1 | IC50 | nucleotide incorporation |  |  | <100 µM
O=C(OC1[C@H](O)CC(O)(C(=O)O)C[C@H]1O)c1cc(O)c(O)c(O)c1 | IC50 | nucleotide incorporation |  |  | >20 µg/mL
CC(C)Nc1cccnc1OCCN(C)C(=O)c1cc2ccccc2[nH]1 | IC50 | nucleotide incorporation |  |  | <100 µM
CCN1c2ncc(CCOc3cccc4c3COC(=O)N4)cc2-c2ncc(C)n2-c2cccnc21 | IC50 | nucleotide incorporation / radiometric |  | RT-K103N Y181C | >0.1 µM